A mixed list of measured activities; the numbers were collected in NIAID ChemDB.

All rows: tests in culture; organism: Candida parapsilosis; read-out: MIC

An empty or dashed field is not shown. Conditions beyond the fields shown may differ between rows.

SMILES | strain or isolate | value
O=[N+]([O-])c1ccc(/C=N\O)cc1 | - | 3010 µM
CCOC(=O)C1C(=O)C=C(c2ccc(OC)cc2)CC1c1ccc(C2CC(c3ccc(OC)cc3)=CC(=O)C2C(=O)OCC)cc1 | Clinical isolate | 50 µg/mL
CC(C)=CCC/C(C)=C/CN(C/C=C(\C)CCC=C(C)C)C(=N)N | ATCC 22019 | 31.2 µg/mL
O=c1[nH][nH]c2c1C(c1ccc(Cl)cc1)CC(c1ccc3ccccc3c1)=C2 | - | 6.25 µg/mL
O/N=C\c1ccccc1 | - | 2060 µM
OC(Cn1cncn1)(Cn1cncn1)c1ccc(F)cc1F | ATCC 22019 | 3.1 µM
CC(C)=CCN=C(NCC=C(C)C)NCC=C(C)C | ATCC 22019 | 31.2 µg/mL
O=C(NCCCCCCNC(=O)NNC(=O)c1ccccc1)NNC(=O)c1ccccc1 | - | 7.5 µg/mL
O=c1[nH][nH]c2c1C(c1ccc([N+](=O)[O-])cc1)CC(c1ccc3ccccc3c1)=C2 | - | 25 µg/mL
COC(=O)c1c(C)oc2cc(C(=O)C(Br)Br)c(O)c(Br)c12 | ATCC 22019 | 100 µg/mL
Cn1cccc1-c1n[nH]c(=O)n1CCCCCCn1c(-c2cccn2C)n[nH]c1=O | - | 7.5 µg/mL
O/N=C\c1ccccc1O | - | 1800 µM
CCOC(=O)C1C(=O)C=C(c2ccc(F)cc2)CC1c1ccc(C2CC(c3ccc(F)cc3)=CC(=O)C2C(=O)OCC)cc1 | Clinical isolate | 6.25 µg/mL
O/N=C\c1ccc(F)cc1 | - | 3600 µM
CCOC(=O)C1C(=O)C=C(c2ccc(Br)cc2)CC1c1ccc(C2CC(c3ccc(Br)cc3)=CC(=O)C2C(=O)OCC)cc1 | Clinical isolate | 6.25 µg/mL
O=[N+]([O-])c1cccc(/C=N\O)c1 | - | 3010 µM
Cc1n[nH]c(=O)n1CCCCCCn1c(C)n[nH]c1=O | - | 7.5 µg/mL

A second listing of 2 rows from above:

{"SMILES": "CCOC(=O)C1C(=O)C=C(c2ccc(F)cc2)CC1c1ccc(C2CC(c3ccc(F)cc3)=CC(=O)C2C(=O)OCC)cc1", "strain or isolate": "Clinical isolate", "value": "6.25 µg/mL"}
{"SMILES": "CC(C)=CCC/C(C)=C/CN(C/C=C(\\C)CCC=C(C)C)C(=N)N", "strain or isolate": "ATCC 22019", "value": "31.2 µg/mL"}